Test results published in US6699656B2, “Treatment and prevention of HIV infection by administration of derivatives of human chorionic gonadotropin” (University of Maryland Biotechnology Institute, priority 1996, dated 2004).

How the values were obtained:
[1] = test system: HIV-1 transgenic mice; assay type: in vivo; details: for growth retardation and cachexia: branched peptide 10 μg to mothers s.c. daily for 10 days; for HIV-1 gene expression in skin biopsies (RT-PCR): Tg26 mice, hCG (APL) 300-500 I.U. to mothers s.c. twice weekly, pups via milk
[2] = test system: SIVmac251; assay: SIV infected rhesus monkeys treated with hCG preparation; assay type: in vivo
[3] = test system: HIV-1; details: for cholestasis (adverse event): patient PH-OJ, preexisting cholestasis, higher doses of hCG, required hospitalization; for CD4/mm^3 Rx: post treatment with hCG, (M) = month from enrollment; for Viral Load Rx: post treatment
[4] = test system: HIV; details: literature; cited from earlier work
[5] = test system: HIV-1; details: purified heterodimeric hCG; cited from earlier work
[6] = test system: HIV-1; details: for relative effectiveness among commercial hCG preparations in inhibiting HIV infection and replication: rank order
Experimental: Sequences of the peptides are as follows:
HIV-1 infected cells were treated with the above preparations and the virus was measured.

[7] = test system: HIV-1 LTR; assay: HIV-1 LTR driven CAT reporter expression in HUT 78; assay type: cell-based; details: 40 hours
[8] = RT-PCR (R), one patient per row
[9] = p24 antigen days 3 to 10, peptides 0.05 to 50 nmoles/ml, hCG 0.01 to 1,000 IU, native β-hCG 100 to 1,000 μg

hCG: human chorionic gonadotropin preparation, brand not stated at the place (or both Pregnyl and APL, 'PA')
hyperkeratosis of the skin / histology ([1]; HIV-1 transgenic mice): regressed
HIV viral proteins (gp120, Nef) in skin biopsies, immunostaining ([1]; after 2 weeks treatment): marked decrease
HIV viral proteins (gp120, Nef) in skin biopsies, immunostaining ([1]; after 30 days of hCG treatment): no detectable HIV proteins
effective weekly dose ([1]; mice): 300-500 I.U.
reappearance of viral protein expression after treatment was halted ([1]; not shown): 2 weeks
effective weekly dose ([2]; monkeys): 6,000 I.U.
last viral load measurement, patient PG-18 ([3]; 3673 before hCG, started Crixivan after hCG): 1742 copies
last viral load measurement, patient PG-16 ([3]; 47,931 before hCG, started Ritonavir after hCG): 370 copies
CD4+ T cell levels, patient PH-OJ ([3]; CD4+ T cells below 10 at start): did not experience an increase
decrease in viral load, patient PH-VE ([3]; NASBA): 1.5 log
viral load, patient PH-VE ([3]; NASBA, from 230,000 copies): 11,000 copies
viral load, patient PH-SPBE ([3]; NASBA, from 1,400,000 copies, systemic 25,000 then 40,000-60,000 IU per week, before Ritonavir): 700,000 copies and 770,000 copies
viral load, other patients e.g. PG-3 and PG-15 ([3]; PG-3 on multiple drugs, PG-15 on no other therapy): stable viral load or demonstrated increases in viral load
viral load, patient PH-OJ ([3]; RT-PCR, from 100,000): 2500 copies
last viral load measurement, patient PG2 ([3]; Roche Amplicor, 10,496 before hCG, started Norvir after hCG): 15,542 copies
reduction in viral load, patient PH-DP ([3]; TCID assay, CDC stage B1, no KS, no change in anti-viral therapy): 2 log
CD4+ T cells, patient PH-VE ([3]; at 68 weeks of hCG therapy): 204 mm^3
CD4+ T cell levels, patient PH-VE ([3]; from 100 mm3, intralesional then subcutaneous injections for 6 weeks): 160 mm^3
Weight gain ([3]; listed as hCG preparation): +1 kG and 0 kG
toxicity, patient PH-VE ([3]; more than 80 weeks of therapy): without toxicity
rise of CD4+ T cell levels, patient PG-4 ([3]; no other antiviral therapy): 10 fold
CD4+ T cell levels, patient PG-4 ([3]; no other antiviral therapy, from 47 mm^3): 424 mm^3
CD4+ T cells, patient PH-SPBE ([3]; on hCG before Ritonavir): stabilized in the mid-100
drop in viral load, patient PG-1 ([3]; on reverse transcriptase inhibitors at enrollment): 1 log
cholestasis (adverse event) [3]: cholestasis was exacerbated
CD4/mm^3 Rx [3]: 174 (M3) /mm^3
Viral Load Rx ([3]; NASBA (N), one patient per row): 770,000
Viral Load Rx [3, 8]: 500R
CD4+ T cell levels in the other patients on anti-virals ([3]; systemic hCG trial, including protease inhibitors): stable or increased
viral load, patient PH-JPV ([3]; week 4 of hCG alone, 500,000 (Roche Amplicor) before hCG): 4,900,000 copies
T cell counts and physical symptoms in certain HIV infected subjects [4]: improved T cell counts and physical symptoms
reverse transcriptase activity in HIV-1 infected lymphocytes and monocytes in culture [5]: reduce the reverse transcriptase activity
transmission of HIV from lymphocytes to trophoblasts in vitro [5]: prevent transmission of HIV

CR127: highly purified native hCG heterodimer supplied by the National Hormone and Pituitary Program, NIH [reference compound]
inhibition of HIV-1 infection/replication in acutely infected cells [6, 9]: little or no inhibition
inhibition of HIV-1 infection/replication in acutely infected cells ([6]; p24 antigen days 3 to 10, peptides 0.05 to 50 nmoles/ml, hCG 0.01 to 1,000 IU, native β-hCG 100 to 1,000 μg, listed as highly purified hCG preparation): not to be active

hCG Pregnyl: commercial native hCG preparation, Pregnyl (Organon)
relative effectiveness among commercial hCG preparations in inhibiting HIV infection and replication [6]: followed by
relative effectiveness among commercial hCG preparations in inhibiting HIV infection and replication ([6]; listed as pregnyl): next most effective
Weight gain [3]: +3 kG (2×) and +2 kG (2×) and +1 kG (3×) and −3 (diet) kG and 0 kG (2×) and +1.5 kG (3×) and +6 kG
CD4/mm^3 Rx [3]: 3 (M4) /mm^3 and 35 (M2) /mm^3 and 17 (M3) /mm^3 and <5 (M1) /mm^3 and 505 (M3) /mm^3 and 89 (M2) /mm^3 and 5 (M1) /mm^3 and 202 (M2) /mm^3 and 10 (M4) /mm^3 and 10 (M2) /mm^3 and 72 (M3) /mm^3 and 14 /mm^3 and 12 /mm^3 and 35 (1M) /mm^3 and 160 (M4) /mm^3 and 204 (M20) /mm^3
Viral Load Rx ([3]; NASBA (N), one patient per row): 150,000N and <4,000N and 300,000 and 11,000
Viral Load Rx [3, 8]: 2,500R
Viral Load Rx ([3]; TCID (T), patient PH-DP, 1 mo, PreRx 100T): 1T (1 mo)

hCG APL: commercial preparation of native hCG (APL, Wyeth Ayerst)
growth retardation and cachexia ([1]; HIV-1 transgenic mice): reversal
HIV-1 gene expression in skin biopsies (RT-PCR) [1]: marked down regulation; also recorded: marked decrease
CD4+ T cells ([2]; 3,000 IU 2 times weekly, maintained over 7 months): increase in CD4^+ T cells to normal levels
inhibition of HIV-1 infection/replication in acutely infected cells [6, 9]: dose dependent inhibition
inhibition of HIV-1 infection/replication in acutely infected cells ([6]; p24 antigen days 3 to 10; peptides 0.05 to 50 nmoles/ml, hCG 0.01 to 1,000 IU, native β-hCG 100 to 1,000 μg; Wyeth Ayerst)): active
normal transcription from the LTR detected ([7]; 100 IU/ml): 78%
normal transcription from the LTR detected ([7]; 500 IU/ml): 36%
Weight gain ([3]; listed as APL): −0.9 kG and +1.8 kG (2×) and +1.4 kG and +3.2 kG and +4.5 kG and +2.3 kG (2×) and −5.0 kG and +5.4 kG and +10.0 kG
cholestasis (adverse event) [3]: exacerbation of preexisting cholestasis
CD4/mm^3 Rx ([3]; listed as APL): 170 (M4) /mm^3 and 48 (M4) /mm^3 and 424 (M4) /mm^3 and 21 (M3) /mm^3 and 213 /mm^3 and 678 /mm^3 and 218 /mm^3 and 86 /mm^3 and 361 /mm^3 and 46 /mm^3 and 483 /mm^3
Viral Load Rx ([3]; Roche Amplicor (A), one patient per row, listed as APL): 1,700A and 40,000A and 55,000A and 98,000A and 22,313A and 6,777A and 200A and 22,510A

native α-hCG: native α subunit of hCG [reference compound]
growth retardation and cachexia ([1]; HIV-1 transgenic mice): no effect
HIV-1 gene expression in skin biopsies (RT-PCR) [1]: no effect
inhibition of HIV-1 infection/replication in acutely infected cells [6, 9]: little or no effect
inhibition of HIV-1 infection/replication in acutely infected cells ([6]; p24 antigen days 3 to 10, peptides 0.05 to 50 nmoles/ml, hCG 0.01 to 1,000 IU, native β-hCG 100 to 1,000 μg, listed as native α-chain): inactive

Values joined by “and” are separate entries in the source; they are usually repeats but may differ in a detail not shown here. Equal values may be shown once. “Also recorded” adds a separate entry of the source. Read-outs that look alike come from different tables or passages of the source.
